Experimental data from ChEMBL document CHEMBL1150695, “The synthesis of SO-3, a conopeptide with high analgesic activity derived from Conus striatus” (2003).

Experiments:
[1] = test system: Mus musculus; assay: Analgesic activity in intracerebrally mouse assessed as reaction time required to elicit jumping or hind paw licking by hot plate method
[2] = test system: Rattus norvegicus; assay: Analgesic activity in rat assessed as reaction time required for tail flicking response at 1.2 ug/kg, intracerebrally after 2 hrs by tail-flicking reaction method
[3] = test system: Mus musculus; assay: Analgesic activity in mouse assessed as reaction time required to elicit jumping or hind paw licking at 1.5 ug/kg, intracerebrally after 4 hrs by hot plate method
[4] = test system: Mus musculus; assay: Analgesic activity in mouse assessed as reaction time required for tail flicking at 2.2 ug/kg, intracerebrally after 2.5 hrs by light radiation method
[5] = test system: Mus musculus; assay: Analgesic activity in mouse assessed as reaction time required to elicit jumping or hind paw licking at 3 ug/kg, intracerebrally after 2.5 hrs by hot plate method
[6] = test system: Mus musculus; assay: Analgesic activity in mouse assessed as reaction time required for tail flicking at 3.2 ug/kg, intracerebrally after 1 hr by light radiation method
[7] = test system: Mus musculus; assay: Analgesic activity in mouse assessed as reaction time required for tail flicking at 0.7 ug/kg, intracerebrally after 1 hr by light radiation method
[8] = test system: Mus musculus; assay: Analgesic activity in mouse assessed as reaction time required to elicit jumping or hind paw licking at 3 ug/kg, intracerebrally after 1.5 hrs by hot plate method
[9] = test system: Mus musculus; assay: Analgesic activity in mouse assessed as reaction time required for tail flicking at 2.7 ug/kg, intracerebrally after 4 hrs by light radiation method
[10] = test system: Rattus norvegicus; assay: Analgesic activity in rat assessed as reaction time required for tail flicking response at 2 ug/kg, intracerebrally after 3 hrs by tail-flicking reaction method
[11] = test system: Mus musculus; assay: Analgesic activity in mouse assessed as reaction time required for tail flicking at 1.2 ug/kg, intracerebrally after 3.3 hrs by light radiation method
[12] = test system: Mus musculus; assay: Analgesic activity in mouse assessed as reaction time required for tail flicking at 3.2 ug/kg, intracerebrally after 3.3 hrs by light radiation method
[13] = test system: Mus musculus; assay: Analgesic activity in mouse assessed as reaction time required for tail flicking at 2.2 ug/kg, intracerebrally after 1 hr by light radiation method
[14] = test system: Mus musculus; assay: Analgesic activity in mouse assessed as reaction time required for tail flicking at 2.7 ug/kg, intracerebrally after 1 hr by light radiation method
[15] = test system: Mus musculus; assay: Analgesic activity in mouse assessed as reaction time required to elicit jumping or hind paw licking at 0.5 ug/kg, intracerebrally after 2.5 hrs by hot plate method
[16] = test system: Mus musculus; assay: Analgesic activity in mouse assessed as reaction time required for tail flicking at 2.7 ug/kg, intracerebrally after 3.3 hrs by light radiation method
[17] = test system: Mus musculus; assay: Analgesic activity in mouse assessed as reaction time required to elicit jumping or hind paw licking at 1 ug/kg, intracerebrally after 2.5 hrs by hot plate method
[18] = test system: Rattus norvegicus; assay: Analgesic activity in rat assessed as reaction time required for tail flicking response at 1.2 ug/kg, intracerebrally after 1 hr by tail-flicking reaction method

Question: What does the source list for CC[C@H](C)[C@@H]1NC(=O)[C@H](CCCNC(=N)N)NC(=O)[C@H](CO)NC(=O)[C@@H]2CSSC[C@@H]3NC(=O)[C@H](CO)NC(=O)CNC(=O)[C@H]([C@H](C)O)NC(=O)[C@H](CSSC[C@H](N)C(=O)N[C@@H](CCCCN)C(=O)N[C@@H](C)C(=O)N[C@@H](C)C(=O)NCC(=O)N[C@@H](CCCCN)C(=O)N4CCC[C@H]4C(=O)N2)NC(=O)[C@H](CSSC[C@@H](C(N)=O)NC(=O)[C@H](CCCCN)NC(=O)CNC(=O)[C@H](CO)NC(=O)[C@H](CCCNC(=N)N)NC3=O)NC(=O)[C@H](CC(N)=O)NC(=O)[C@H](Cc2ccc(O)cc2)NC(=O)[C@H](C)NC1=O?
Answer: EC50 [1]: 0.75 µg/kg; Activity [2]: 3.6 s; Activity [3]: 29.4 s; Activity [4]: 12.4 s; Activity [5]: 55.8 s; Activity [6]: 11.2 s; Activity [7]: 12.1 s; Activity [8]: 59.8 s; Activity [9]: 8.8 s; Activity [10]: 4.5 s; Activity [11]: 10.5 s; Activity [12]: 11.1 s; Activity [13]: 14.2 s; Activity [14]: 14.2 s; Activity [15]: 15.8 s; Activity [16]: 10.2 s; Activity [17]: 15 s; Activity [18]: 3.3 s
